Pooled drug test results. Numbers come from NIAID ChemDB, via PubChem.

All rows: tests in culture; species: HIV-1; cells: MT-4; read by: MTT; measure: EC50

Blank or dashed fields: not listed here. Conditions beyond the fields shown may differ between rows. ECn is the concentration giving n% inhibition of infection, replication or growth.

SMILES	strain	changes	value
CCc1c(Cc2cc(OC)cc(OC)c2)[nH]c(=S)[nH]c1=O	N119	Y181C	>100 µM
CCOC(=O)c1ccc(CN2CCC(Nc3nc(Oc4c(C)cc(/C=C/C#N)cc4C)c4sccc4n3)CC2)cc1	RES056		0.165 µM
CCc1c(Cc2ccccc2C)n(COCC#Cc2cccc3ccccc23)c(=O)[nH]c1=O	IIIB	K103N + Y181C	>34 µM
Cc1cc(/C=C/C#N)cc(C)c1Oc1nc(NC2CCN(Cc3cccc(C#N)c3)CC2)nc2ccsc12	IIIB	NNRTI-resistant (RT Y188L)	0.051 µM
CCc1c(Cc2cc(C)cc(C)c2)n(COCC#Cc2ccc(C=O)cc2)c(=O)[nH]c1=O	IIIB	K103N + Y181C	4 µM
O=C1Nc2ccc(Cl)cc2[C@@](C#CC2CC2)(C(F)(F)F)O1	RES056		0.2793 µM
CCOCn1c(Cc2cc(OC)cc(OC)c2)c(C(C)C)c(=O)[nH]c1=O	A17	K103N + Y181C	90 µM
CCn1c(C)c(C)c2c(-c3ccccc3)c(C(OC(C)(C)C)C(=O)O)c(C)nc21	IIIB		0.692 µM
CCc1c(Cc2cc(C)cc(C)c2)n(COCC#Cc2ccc(O)cc2)c(=O)[nH]c1=O	IIIB	Y181C	3 µM
N#Cc1ccc(Nc2nc(Oc3ccc(-c4ccc(C#N)cc4)cc3Cl)c3sccc3n2)cc1	IIIB		0.0397 µM
CCc1c(Cc2cc(C)cc(C)c2)n(COCCOc2ccccc2)c(=O)[nH]c1=O	N119	Y181C	2.6 µM
N#Cc1ccc(Nc2nc(Oc3ccc(-c4ccc(C#N)cc4)c(C#N)c3)c3sccc3n2)cc1	IIIB		0.0766 µM
Cc1cc(-c2ccc(C#N)cc2)cc(C)c1Oc1ccnc(S(=O)(=O)CC(=O)Nc2ccc(F)cc2)n1	IIIB	K103N	0.035 µM
N#Cc1ccc(Nc2nc(Oc3ccc(-c4ccc(C#N)cc4)c(F)c3F)c3sccc3n2)cc1	IIIB		0.0135 µM
Cc1nc2c(ccn2C)c(-c2ccc(Cl)cc2)c1[C@H](OC(C)(C)C)C(=O)O	IIIB		0.222 µM
Cc1ccc(CN2CCC(Nc3nc(Oc4c(C)cc(/C=C/C#N)cc4C)c4sccc4n3)CC2)cc1	IIIB	NNRTI-resistant (RT Y181C)	0.0297 µM
Cc1nc2c(c(C)c(C)n2Cc2ccsc2)c(-c2ccc(Cl)cc2)c1[C@H](OC(C)(C)C)C(=O)O	IIIB		0.02817 µM
CCc1c(Cc2cc(OC)cc(OC)c2)n(COCCOc2ccccc2)c(=O)[nH]c1=O	A17	K103N + Y181C	>41 µM
CCc1c(Cc2cc(C)cc(C)c2)n(COCC#Cc2cccc(C=O)c2)c(=O)[nH]c1=O	IIIB	Y181C	3.6 µM
COCCn1c(C)c(C)c2c(-c3ccc(Cl)cc3)c([C@H](OC(C)(C)C)C(=O)O)c(C)nc21	IIIB		0.00631 µM
Cc1cc(C#N)cc(C)c1Oc1nc(NC2CCC(NCc3cccc(C(F)(F)F)c3)CC2)nc2ccsc12	IIIB	NNRTI-resistant (RT L100I)	>707 µM
Cc1cc(-c2ccc(C#N)cc2)cc(C)c1Oc1ccnc(S(=O)(=O)CC(=O)Nc2ccc(Br)cc2)n1	IIIB	Y181C	0.114 µM
CCc1c(Cc2cc(C)cc(C)c2)n(COCC#CC#CCO[Si](c2ccccc2)(c2ccccc2)C(C)(C)C)c(=O)[nH]c1=O	IIIB	WT	2 µM
Cc1cc(/C=C/C#N)cc(C)c1Oc1nc(NC2CCN(Cc3cccnc3)CC2)nc2ccsc12	IIIB	NNRTI-resistant (RT Y188L)	0.0107 µM
CCc1c(Cc2cc(C)cc(C)c2)n(COC/C(=C/Sc2ccccc2)Sc2ccccc2)c(=O)[nH]c1=O	IIIB	Y181C	7 µM
Cc1cc(C#N)cc(C)c1Oc1ccnc(S(=O)(=O)CC(=O)Nc2ccc(C#N)cc2)n1	IIIB	L100I	0.067 µM
Cc1nc2c(c(C)c(C)n2Cc2ccn[nH]2)c(-c2ccc(Cl)cc2)c1[C@H](OC(C)(C)C)C(=O)O	IIIB		0.02287 µM
Cc1cc(-c2ccc(C#N)cc2)cc(C)c1Oc1ccnc(S(=O)(=O)C(C)C(=O)Nc2ccc(C#N)cc2)n1	IIIB	E138K	0.041 µM
Cc1cc(C#N)cc(C)c1Oc1nc(NC2CCC(NCc3ccc(S(C)(=O)=O)cc3)CC2)nc2ccsc12	IIIB	NNRTI-resistant (RT L100I)	≥197 µM
CCc1c(Cc2ccccc2C)n(COCC#CC2c3ccccc3-c3ccccc32)c(=O)[nH]c1=O	IIIB	WT	12 µM
Cc1cc(/C=C/C#N)cc(C)c1Oc1ccnc(S(=O)(=O)CC(=O)Nc2ccc(Cl)cc2)n1	IIIB		0.007 µM
Cc1nc2c(c(C)c(C)n2C)c(-c2ccc(Cl)cc2)c1C(OC(C)(C)C)C(=O)O	IIIB		0.029 µM

3 of the rows above, restated:

N#Cc1ccc(Nc2nc(Oc3ccc(-c4ccc(C#N)cc4)c(C#N)c3)c3sccc3n2)cc1 ; strain: IIIB ; value: 0.0766 µM
Cc1cc(-c2ccc(C#N)cc2)cc(C)c1Oc1ccnc(S(=O)(=O)CC(=O)Nc2ccc(F)cc2)n1 ; strain: IIIB ; changes: K103N ; value: 0.035 µM
Cc1nc2c(c(C)c(C)n2Cc2ccsc2)c(-c2ccc(Cl)cc2)c1[C@H](OC(C)(C)C)C(=O)O ; strain: IIIB ; value: 0.02817 µM